Anti-infective test results gathered from many reports (values: NIAID ChemDB through PubChem).

Common to all: growth or infection tests; organism: Mycobacterium tuberculosis

Conditions beyond the fields shown may differ between rows. MIC bound comes from a single tested concentration. Blank or dashed fields: not listed here. ECn: concentration that inhibits the pathogen or its effect by n%. Percent inhibition refers to the dose given; in toxicity tests it is the harm to the cells.

SMILES | strain or isolate | method | measure | cell line | tested at | result
CC[Si](CC)(OCCCc1ccncc1)OCCCc1ccncc1 | H37Rv | - | MIC | - | - | 50 µg/mL
CCOC(=O)Nc1cc(Cl)cc(NC(=O)OCC)n1 | H37Rv | - | EC50 | - | - | >12.5 µg/mL
CC(=O)Oc1ccc(S(=O)(=O)[O-])cc1.[Na+] | H37Rv | - | MIC | - | - | >100 µg/mL
CCOC(=O)Nc1cc2[nH]c(-c3ccc(Cl)cc3)nc2c(N(CCc2ccccc2)Cc2ccccc2)n1 | H37Rv | - | EC50 | - | - | <12.5 µg/mL
NS(=O)(=O)C1CCCCC1C(=O)NNC(=O)C(=O)Nc1nc(=S)[nH][nH]1 | H37Rv | BACTEC | MIC bound | - | - | >12.5 µg/mL
CSC(=N)c1ccc(O)cc1O | H37Rv | - | MIC | - | - | >100 µg/mL
O=c1cc(-c2ccc(O)cc2-c2c(O)cc3oc(-c4ccc(O)cc4)cc(=O)c3c2O)oc2cc(O)cc(O)c12 | - | - | EC50 | - | - | >12.5 µg/mL
O=C(O)c1ccccc1C(=O)c1ccc2ccc(Cl)cc2c1 | H37Rv | - | MIC | - | - | 50 µg/mL
Cc1ccc(NC(=O)Nc2ccccc2Cl)cc1Cl | H37Rv | BACTEC | MIC bound | - | - | >12.5 µg/mL
CCCCC(CC)CN1CN(CC(CC)CCCC)CC(C)(NCCNCc2ccc(C)cc2)C1 | - | - | MIC | - | - | 25 µM
O=C(O)c1ccc2ccccc2c1O | H37Rv | - | MIC | - | - | >100 µg/mL
Fc1ccc(CCNCCNCCCc2ccccc2)cc1 | - | - | MIC | - | - | 12.5 µM
Cc1ccc2ccccc2n1 | H37Rv | - | MIC | - | - | >100 µg/mL
CC(NCCNC1CCCCCCC1)c1cccc2ccccc12 | - | - | MIC | - | - | 25 µM
CN(C)C(=O)Nc1nc2cc(Cl)c(Cl)cc2[nH]1 | H37Rv | BACTEC | inhibition | - | 6.25 µg/mL | 90%
CCOC(=O)Nc1cc(NC(c2ccccc2)c2ccccc2)c2nc(-c3ccccc3)c(-c3ccccc3)nc2n1 | H37Rv | - | EC50 | - | - | >12.5 µg/mL
O=C(O)/C=C\C(=O)Nc1ccccc1 | H37Rv | - | MIC | - | - | 100 µg/mL
Cc1ccc(S(=O)(=O)n2cnc(CC(NC(=O)C3CCC(=O)N3C(=O)OCc3ccccc3)C(=O)N3CCCC3C(=O)NN)c2)cc1 | H37Rv | BACTEC | MIC bound | - | - | >12.5 µg/mL
CO[C@H]1/C=C/O[C@@]2(C)Oc3c(C)c(O)c4c(O)c(c5c(c4c3C2=O)NC2(CCN(CC(C)C)CC2)N=5)=NC(=O)/C(C)=C\C=C\[C@H](C)[C@H](O)[C@@H](C)[C@@H](O)[C@@H](C)[C@H](OC(C)=O)[C@@H]1C | 2847 (rifampin-sensitive) | - | MBC | - | - | 0.05 µg/mL
CC(C)c1cccc(O)c1 | H37Rv | - | MIC | - | - | 3.12 µg/mL
CC(C)(C)c1cc(C(O)(C(F)(F)F)C(F)(F)F)c2c(c1)C(C(F)(F)F)(C(F)(F)F)OS2(=O)=O | H37Rv | BACTEC | MIC bound | - | - | >12.5 µg/mL
Cc1ccc2c(c1)N(CC(O)CO)CCC2 | H37Rv | - | MIC | - | - | >100 µg/mL
CCCCCCCCCCCNCCNCc1cc(OC)c(OC)c(OC)c1 | - | - | MIC | - | - | 50 µM
Cc1cc(=O)n(-c2ccccc2)n1C | H37Rv | - | MIC | - | - | >100 µg/mL
COC(=O)C(CO)NC(=O)C(CO)NC(=O)OCc1ccccc1 | H37Rv | BACTEC | inhibition | - | 12.8 µg/mL | 26%
Nc1ccc2nc(CC(=O)c3ccccc3)[nH]c2c1 | H37Rv | - | MIC | - | - | >100 µg/mL
O=C1CC(c2cccc(Br)c2)Oc2ccccc21 | H37Rv | - | EC50 | - | - | <12.5 µg/mL
CC1(C)[C@H]2CC[C@@H](CNCCNCCC3=CCCCC3)[C@@H]1C2 | - | - | MIC | - | - | 25 µM
Cc1ccc2nc(-c3ccc(N(C)C)cc3)ccc2c1 | H37Rv | - | MIC | - | - | >100 µg/mL
COC1=CC2(C=CC1=O)CCC(=O)O2 | H37Rv | BACTEC | MIC bound | - | - | >12.5 µg/mL
O=C(/C=C/c1ccc(Br)cc1)c1ccccc1O | - | - | EC50 | - | - | <12.5 µg/mL
O=C(COc1ccc([N+](=O)[O-])cc1)NN1C(=O)c2ccc([N+](=O)[O-])cc2C1=O | H37Rv | resazurin | MIC bound | - | - | >6.25 µg/mL
O=C(c1ccccc1)c1ccc(Br)cc1 | H37Rv | - | MIC | - | - | >100 µg/mL
c1ccc(C(CCNCCN2CCCCC2)c2ccccc2)cc1 | - | - | MIC | - | - | 50 µM
C[C@@H]1O[C@@H](OC[C@H]2O[C@@H](Oc3c(-c4ccc(O)c(O)c4)oc4cc(O)cc(O)c4c3=O)[C@H](O)[C@@H](O)[C@@H]2O)[C@H](O)[C@H](O)[C@H]1O | H37Rv | BACTEC | MIC | - | - | ≥128 µg/mL
CC(CNCCNCCCCc1ccccc1)c1ccccc1 | - | - | MIC | - | - | 25 µM
CCOC(=O)Nc1cc2c(c(N)n1)N=C(c1ccccc1)[C@@H](C)N2 | H37Rv | - | EC50 | - | - | <12.5 µg/mL
COc1cc2c(cc1OC)C(C(=O)O)C1c3cc4c(cc3CCN1C2=O)OCO4 | H37Rv | BACTEC | MIC bound | - | - | >12.5 µg/mL
Nc1cccc(/C=C/C(=O)c2ccccc2O)c1 | H37Rv | - | EC50 | - | - | >12.5 µg/mL
CCOc1ccc(NC(=O)C(=O)CC(=O)c2c(C)n([O-])c3ccccc3[n+]2=O)cc1 | H37Rv | resazurin | inhibition | - | 6.25 µg/mL | 35%
Cc1nc2cc3oc4ccccc4c3cc2[nH]1 | H37Rv | - | MIC | - | - | 50 µg/mL
CC(C)=NNC(=O)Nc1ccc(C)c(Cl)c1 | H37Rv | BACTEC | MIC | - | - | >12.5 µg/mL
CO[C@H]1/C=C/O[C@@]2(C)Oc3c(C)c(O)c4c(=O)c(c5oc6cc(N7CCN(CC(C)C)CC7)cc(=O)c6nc5c4c3=C2O)NC(=O)/C(C)=C\C=C\[C@H](C)[C@H](O)[C@@H](C)[C@@H](O)[C@@H](C)[C@H](OC(C)=O)[C@@H]1C | 3113 (rifampin-sensitive) | - | MBC | - | - | 0.006 µg/mL
C=C(C)C1CC2(C)C(C)CC(OC(=O)/C(C)=C\C)CC2C(OC(=O)/C(C)=C\C)C1O | H37Rv | BACTEC | MIC | - | - | ≥12.5 µg/mL
CCOC(=O)Nc1cc(N)c([N+](=O)[O-])c(NCC(CN(C)c2ccc(NC)cc2)=NC)n1 | H37Rv | - | inhibition | - | 12.5 µg/mL | 0%
O=C1CS(=O)(=O)C(c2ccccn2)N1CCN1C(=O)CS(=O)(=O)C1c1ccccn1 | H37Rv | BACTEC | MIC bound | - | - | >12.5 µg/mL
CCCCCCCCc1ccncc1 | H37Rv | - | MIC | - | - | >100 µg/mL
CC(C)(C)NCc1cc(C(C)(C)C)cc(-c2ccc(Cl)cc2)c1O | H37Rv | - | MIC | - | - | 12.5 µg/mL
NC(CCCCCCC(N)C(=O)O)C(=O)O | H37Rv | - | MIC | - | - | >100 µg/mL
CC1CCCN(C(=S)S)C1.CC1CCCNC1 | H37Rv | - | MIC | VERO | - | 3.1 µg/mL
COc1ccc(CNCCNCC23CC4CC(CC(C4)C2)C3)cc1OC | - | - | MIC | - | - | 50 µM
CCCCNC(=S)S | PAS-R | - | MIC | - | - | >12.5 µg/mL
COc1cc(NS(=O)(=O)c2ccc(C)cc2)ccc1N | H37Rv | - | MIC | - | - | 50 µg/mL
COC(=O)[C@@H]1[C@H](O)[C@H](C)C(O)[C@H](C)/C=C\C=C(/C)C(=O)Nc2c(C)c(OC(C)=O)c3c(c2O)C(=O)C(C)=C2OCOC(=C23)/C(C)=C/[C@@](C)(O)[C@H](O)[C@@H](C)[C@H]1OC(C)=O | EMB-R | - | MIC | - | - | 12.5 µg/mL
Nc1ccc(Br)cc1-c1ccccc1 | H37Rv | - | MIC | - | - | 50 µg/mL
CC1=C(C)C(=O)O[C@H]([C@](C)(O)[C@]2(O)CC[C@@]3(O)[C@@H]4C[C@H](O)[C@]5(O)C(O)C=CC(=O)[C@]5(C)[C@H]4CC[C@]23C)C1 | H37Rv | BACTEC | inhibition | - | 12.5 µg/mL | 1%
COC(=O)CCCCC(=O)Nc1ccc(O)cc1 | H37Rv | - | MIC | - | - | >100 µg/mL

A second listing of 4 rows from above:

SMILES	strain or isolate	method	measure	cell line	tested at	result
Nc1ccc2nc(CC(=O)c3ccccc3)[nH]c2c1	H37Rv	-	MIC	-	-	>100 µg/mL
O=C(c1ccccc1)c1ccc(Br)cc1	H37Rv	-	MIC	-	-	>100 µg/mL
Cc1ccc2nc(-c3ccc(N(C)C)cc3)ccc2c1	H37Rv	-	MIC	-	-	>100 µg/mL
Cc1ccc(S(=O)(=O)n2cnc(CC(NC(=O)C3CCC(=O)N3C(=O)OCc3ccccc3)C(=O)N3CCCC3C(=O)NN)c2)cc1	H37Rv	BACTEC	MIC bound	-	-	>12.5 µg/mL